Pooled drug test results. Numbers come from NIAID ChemDB, via PubChem.

Common to all: tests in culture; species: Mycobacterium avium complex; measure: MIC

Conditions beyond the fields shown may differ between rows.

smiles,strain or isolate,result
NNC(=O)c1ccncc1,13008 (serotype 20),3.2 µg/mL
CCn1cc(C(=O)O)c(=O)c2cc(F)c(N3CCN(C)CC3)cc21,CIPT 14031003,20 µg/mL
NC[C@H]1O[C@H](O[C@H]2[C@H](O)[C@@H](O[C@H]3O[C@H](CO)[C@@H](O)[C@H](N)[C@H]3O)[C@H](N)C[C@@H]2N)[C@H](O)[C@@H](O)[C@@H]1O,Isolate C-46,200 µg/mL
NCCC(O)C(N)CC(=O)NC1CNC(=O)C(C2CCN=C(N)N2)NC(=O)/C(=C/NC(N)=O)NC(=O)C(CO)NC(=O)C(CO)NC1=O,13034 (serotype 18),100 µg/mL
CC[C@H]1OC(=O)[C@H](C)[C@@H](O[C@H]2C[C@@](C)(OC)[C@@H](O)[C@H](C)O2)[C@H](C)[C@@H](O[C@@H]2O[C@H](C)C[C@H](N(C)C)[C@H]2O)[C@](C)(O)C[C@@H](C)C(=O)[C@H](C)[C@@H](O)[C@]1(C)O,3218,32 µg/mL
CC1COc2c(N3CCN(C)CC3)c(F)cc3c(=O)c(C(=O)O)cn1c23,969/HIV-,>16 µg/mL
O=C(O)c1cn(C2CC2)c2c(F)c(N3CC4CC3CN4)c(F)cc2c1=O,PI12/39,2 µg/mL
NCC[C@H](O)C(=O)N[C@@H]1C[C@H](N)[C@@H](O[C@H]2O[C@H](CN)[C@@H](O)[C@H](O)[C@H]2O)[C@H](O)[C@H]1O[C@H]1O[C@H](CO)[C@@H](O)[C@H](N)[C@H]1O,1056,10 µg/mL
CN(C)C1CCN(c2c(F)cc3c(=O)c(C(=O)O)cn(C4CC4)c3c2F)C1,1172733,0.5 µg/mL
NCC[C@H](O)C(=O)N[C@@H]1C[C@H](N)[C@@H](O[C@H]2O[C@H](CN)[C@@H](O)[C@H](O)[C@H]2O)[C@H](O)[C@H]1O[C@H]1O[C@H](CO)[C@@H](O)[C@H](N)[C@H]1O,711/HIV-,4 µg/mL
O=C(O)c1cn(C2CC2)c2c(F)c(N3CCS(=O)CC3)c(F)cc2c1=O,1760694,4 µg/mL
NC[C@@H]1O[C@H](O[C@H]2[C@@H](O)[C@H](O[C@@H]3[C@@H](O)[C@H](N)C[C@H](N)[C@H]3O[C@H]3O[C@H](CO)[C@@H](O)[C@H](O)[C@H]3N)O[C@@H]2CO)[C@H](N)[C@@H](O)[C@@H]1O,CH-3/HIV+,3.12 µg/mL
CO[C@H]1/C=C/O[C@@]2(C)Oc3c(C)c(O)c4c(O)c(c(/C=N/N5CCN(C/C=C/c6ccccc6)CC5)c(O)c4c3C2=O)NC(=O)/C(C)=C\C=C\[C@H](C)[C@H](O)[C@@H](C)[C@@H](O)[C@@H](C)[C@H](OC(C)=O)[C@@H]1C,101,0.06 µg/mL
CCn1cc(C(=O)O)c(=O)c2cc(F)c(N3CCNCC3)cc21,CIPT 14031006,2 µg/mL
NCC[C@H](O)C(=O)N[C@@H]1C[C@H](N)[C@@H](O[C@H]2O[C@H](CN)[C@@H](O)[C@H](O)[C@H]2O)[C@H](O)[C@H]1O[C@H]1O[C@H](CO)[C@@H](O)[C@H](N)[C@H]1O,559/HIV+,>1.25 µg/mL
CN[C@@H]1[C@H](O[C@H]2[C@H](O[C@H]3[C@H](O)[C@@H](O)[C@H](N=C(N)N)[C@@H](O)[C@@H]3N=C(N)N)O[C@@H](C)[C@]2(O)C=O)O[C@@H](CO)[C@H](O)[C@H]1O,TMC 1473,1.56 µg/mL
CO[C@H]1/C=C/O[C@@]2(C)Oc3c(C)c(O)c4c(O)c(c5c(c4c3C2=O)NC2(CCN(CC(C)C)CC2)N=5)=NC(=O)/C(C)=C\C=C\[C@H](C)[C@H](O)[C@@H](C)[C@@H](O)[C@@H](C)[C@H](OC(C)=O)[C@@H]1C,595-5,0.5 µg/mL
CC1CN(c2c(F)cc3c(=O)c(C(=O)O)cn(C4CC4)c3c2F)C(C)CN1,1760694,4 µg/mL
CC[C@@H](CO)NCCN[C@@H](CC)CO,N-316 (HIV-),1 µg/mL
NC[C@@H]1O[C@H](O[C@H]2[C@@H](O)[C@H](O[C@@H]3[C@@H](O)[C@H](N)C[C@H](N)[C@H]3O[C@H]3O[C@H](CO)[C@@H](O)C[C@H]3N)O[C@@H]2CO)[C@H](N)[C@@H](O)[C@@H]1O[C@H]1O[C@H](CO)[C@@H](O)[C@H](O)[C@@H]1O,TMC 1403,0.39 µg/mL
CC1(CN)CCN(c2c(F)cc3c(=O)c(C(=O)O)cn(C4CC4)c3c2F)C1,1988557,32 µg/mL
NCC[C@H](O)C(=O)N[C@@H]1C[C@H](N)[C@@H](O[C@H]2O[C@H](CN)[C@@H](O)[C@H](O)[C@H]2O)[C@H](O)[C@H]1O[C@H]1O[C@H](CO)[C@@H](O)[C@H](N)[C@H]1O,3216,16 µg/mL
CN[C@@H]1[C@@H](O)[C@@H](O[C@@H]2[C@@H](O)[C@H](O[C@H]3O[C@H](CN)CC[C@H]3N)[C@@H](N)C[C@H]2N)OC[C@]1(C)O,Isolate 135,6.25 µg/mL
NCC1CN(c2c(F)cc3c(=O)c(C(=O)O)cn(C4CC4)c3c2F)CC1c1ccccc1,1988557,4 µg/mL
NCCC(O)C(N)CC(=O)NC1CNC(=O)C(C2CCN=C(N)N2)NC(=O)/C(=C/NC(N)=O)NC(=O)C(CO)NC(=O)C(CO)NC1=O,TMC 1469,12.5 µg/mL
CC1CN(c2cc3c(cc2F)c(=O)c(C(=O)O)cn3-c2ccc(F)cc2F)CCN1,3219,4 µg/mL
NC[C@@H]1O[C@H](O[C@H]2[C@@H](O)[C@H](O[C@@H]3[C@@H](O)[C@H](N)C[C@H](N)[C@H]3O[C@H]3O[C@H](CO)[C@@H](O)[C@H](O)[C@H]3N)O[C@@H]2CO)[C@H](N)[C@@H](O)[C@@H]1O,TMC 1473,<0.01 µg/mL
NC[C@H]1O[C@H](O[C@H]2[C@H](O)[C@@H](O[C@H]3O[C@H](CO)[C@@H](O)[C@H](N)[C@H]3O)[C@H](N)C[C@@H]2N)[C@H](O)[C@@H](O)[C@@H]1O,N-319 (HIV-),4 µg/mL
CC1CN(c2c(F)cc3c(=O)c(C(=O)O)cn(C4CC4)c3c2F)CCN1,1915112,2 µg/mL
NNC(=O)c1ccncc1,1129,2 µg/mL
NCC1(O)CCN(c2c(F)cc3c(=O)c(C(=O)O)cn(N4CC4)c3c2F)C1,1760694,16 µg/mL
NCCC[C@H](N)CC(=O)N[C@H]1CNC(=O)[C@H]([C@H]2C[C@H](O)NC(N)=N2)NC(=O)/C(=C/NC(N)=O)NC(=O)[C@H](CO)NC(=O)[C@H](CO)NC1=O,Isolate 64,50 µg/mL

2 of the rows above, restated:

smiles,strain or isolate,result
CC[C@@H](CO)NCCN[C@@H](CC)CO,N-316 (HIV-),1 µg/mL
NCC[C@H](O)C(=O)N[C@@H]1C[C@H](N)[C@@H](O[C@H]2O[C@H](CN)[C@@H](O)[C@H](O)[C@H]2O)[C@H](O)[C@H]1O[C@H]1O[C@H](CO)[C@@H](O)[C@H](N)[C@H]1O,559/HIV+,>1.25 µg/mL